B1: Hsc1, monovalent version (designed binder)
chain: GIVNVPNCNTTKYQQLARTAVAIYNYHEQAHLTFVENLNCKEQLGEGDYYYITLAATDDAGKKAIYEAKIGVVESAGWTGVEEFKLV
B2: Hsc1 (SEQ ID NO:135) fused to HAA.1c (SEQ ID NO:227) via the triLong linker (SEQ ID NO: 352), trimer (designed binder)
chain: MEEVVLITVPSEEVARTIAKALVEERLAACVNIVPGLTSIYRWQGEVVEDQELLLLVKTTTHAFPKLKERVKALHPYTVPEIVALPIAQGNQEYLDWLRENAGGGGSGGSGIVNVPNCNTTKYQQLARTAVAIYNYHEQAHLTFVENLNCKEQLGEGDYYYITLAATDDAGKKAIYEAKIGVVESAGWTGVEEFKLV

Key:
[1] = molecular target: hemagglutinin H3 (A/Hong Kong/1/1968-H3N2) (influenza A virus A/Hong Kong/1/1968 …, UniProt Q91MA7 27-521); test: BLI (FIG. 4); monovalent version
[2] = molecular target: hemagglutinin H2 A/Japan/305/1957 (influenza A virus A/Japan/305/1957 (H2), UniProt P03451 16-516); test: BLI (Octet), biotinylated HA on streptavidin sensors

Row | Binder | Kd [1] [nM] | Kd [2] [nM]
1 | B1 | 31.2 | –
2 | B2 | – | 4.8

Source: US20170198014A1 (UNIVERSITY WASHINGTON THROUGH ITS CENTER FOR …, published 2017)
